“And” between values parts separate entries of the source, which are not always exact repeats. Equal values may be shown once.

The test system of test [1] is CRF01_AE CM244 Env […] on HEK293T cells. It counts as binding. The following applies: temsavir 10 µM, listed as TMR.
Test [2] relates to CRF01_AE 92TH023 Env […] on HEK293T cells. It counts as binding. The following applies: 92TH023 […]; temsavir 10 µM; listed as TMR.

In the case of `COc1cnc(-n2cnc(C)n2)c2[nH]cc(C(=O)C(=O)N3CCN(C(=O)c4ccccc4)CC3)c12` [Temsavir, temsavir], the “sCD4 binding (+TMR) - Fold over DMSO” value in test [1] was 0.8887 and 0.735 and 0.8899; in test [2] it was 0.7004 and 0.8137 and 0.9458.

For the origin of these results see PMC10593844, “Structure-function analyses reveal key molecular determinants of HIV-1 CRF01_AE resistance to the entry inhibitor temsavir” (Nature Communications, 2023).
